Pooled drug test results. Numbers come from NIAID ChemDB, via PubChem.

All rows: growth or infection tests; species: Mycobacterium tuberculosis

MIC bound: limit read from a one-dose screen. An empty or dashed field is not shown. Inhibition is in % at the dose shown (toxicity tests: loss of growth or viability). Lines come from different laboratories, so protocols vary. MIC50, MIC90 and the like: level of inhibition, or share of isolates inhibited. ECn: concentration that inhibits the pathogen or its effect by n%.

smiles | cells | mutations | strain or isolate | method | read-out | tested at | value
CCC1CN(c2c(F)cc3c(=O)c(C(=O)O)cn(C4CC4)c3c2OC)CCN1 |  |  | TN565 (D94H) |  | MIC |  | 0.7 µg/mL
CC(=O)C(N=Nc1ccc(S(=O)(=O)NC2ONC(C)C2C)cc1)C(=O)Nc1ccccc1C |  |  | H37Rv | BACTEC | inhibition | 12.5 µg/mL | 10%
CC(C)(O)c1ccc2c(c1)CC[C@H]1[C@](C)(C(=O)O)CCC[C@]21C |  |  | H37Ra | resazurin | MIC |  | 50 µg/mL
Cc1cc(C(=O)NCc2ccc(Oc3ccc(Cl)cc3Cl)c(O)c2)no1 |  | INH RIF resistant | V2475 | MTT | MIC |  | 40 µg/mL
CN[C@@H]1[C@@H](O)C(O[C@@H]2[C@@H](O)[C@H](OC3O[C@H](CN)[C@@H](O)[C@H](O)[C@H]3O)[C@@H](N)C[C@H]2NC(=O)[C@@H](O)CN)OC[C@]1(C)O |  |  | J12 |  | MIC |  | 1.56 µg/mL
CSC(=S)N/N=C(\C)c1nccnc1C |  |  | H37Rv | BACTEC | inhibition | 128 µg/mL | 100%
CCn1cc(C(=O)O)c(=O)c2cc(F)c(N3CCN(CC(=O)c4ccc(F)cc4)CC3)nc21 |  |  | H37Rv |  | inhibition | 6.25 µg/mL | 44%
CO[C@H]1/C=C/O[C@@]2(C)Oc3c(C)c(O)c4c(O)c(c(/C=N/NCc5ccccc5)c(O)c4c3C2=O)NC(=O)/C(C)=C\C=C\[C@H](C)[C@H](O)[C@@H](C)[C@@H](O)[C@@H](C)[C@H](OC(C)=O)[C@@H]1C |  |  | H37Rv |  | MIC |  | 0.5 µg/mL
O=C1NC(=S)N/C1=C\c1cccc([N+](=O)[O-])c1 |  |  | H37Rv | BACTEC | inhibition | 6.25 µg/mL | 29%
CC1COc2c(N3CCN(C)CC3)c(F)cc3c(=O)c(C(=O)O)cn1c23 |  |  | 25 strains |  | MIC50 |  | 0.78 µg/mL
NNC(=O)c1ccncc1 |  |  | Isolate I |  | MIC |  | >0.2 µg/mL
CO[C@H]1/C=C/O[C@@]2(C)Oc3c(C)c(O)c4c(O)c(c(/C=N/N5CCNCC5)c(O)c4c3C2=O)NC(=O)/C(C)=C\C=C\[C@H](C)[C@H](O)[C@@H](C)[C@@H](O)[C@@H](C)[C@H](OC(C)=O)[C@@H]1C |  |  | H37Rv |  | MIC |  | 2 µg/mL
O=C([C@@H](O)CO)N1CC=C(c2c(F)cc(N3C[C@H](COc4ccon4)OC3=O)cc2F)CC1 |  | T460C Cys154Arg | linezolid resistant 8.3 |  | MIC |  | 16 µg/mL
CO[C@H]1/C=C/O[C@@]2(C)Oc3c(C)c(O)c4c(O)c(c(/C=N/NCCO)c(O)c4c3C2=O)NC(=O)/C(C)=C\C=C\[C@H](C)[C@H](O)[C@@H](C)[C@@H](O)[C@@H](C)[C@H](OC(C)=O)[C@@H]1C |  |  | H37Rv |  | MIC |  | 1 µg/mL
CC(=O)C(=Cc1ccc(O[C@@H]2O[C@H](CO)[C@@H](O)[C@H](O)[C@H]2O)cc1)C(C)=O |  |  | H37Rv | resazurin | MIC bound |  | >6.25 µg/mL
CCCCN(CCCC)N=Cc1c2c(O)c3c(O)c(C)c4c(c3c1O)C(=O)[C@@](C)(O/C=C/[C@H](OC)[C@@H](C)[C@@H](OC(C)=O)[C@H](C)[C@H](O)[C@H](C)[C@@H](O)[C@@H](C)/C=C/C=C(/C)C(=O)N2)O4 |  |  | H37Rv |  | MIC |  | 0.5 µg/mL
CCCCc1cn(Cc2ccc(Oc3ccc(Cl)cc3O)c(Cl)c2)nn1 |  |  | H37Rv | MTT | MIC |  | >100 µg/mL
Cc1ccc(-c2cs/c(=N/NC(=O)CSc3nnc(-c4ccccn4)s3)n2-c2ccccc2)cc1 |  |  | Clinical isolate 180 |  | MIC |  | 80 µg/mL
Cc1ccc(S(=O)(=O)Oc2ccc3sc4cccc(NCCN(C)C)c4c(=O)c3c2)cc1 |  |  | H37Rv | BACTEC | MIC |  | 6.25 µg/mL
O=C(CN1CCN(c2cc3c(cc2F)c(=O)c(C(=O)O)cn3C2CC2)CC1)c1ccc(F)cc1 | VERO |  | H37Rv |  | MIC |  | 0.78 µg/mL
O=C(CSc1nnc(-c2ccccn2)s1)N/N=c1/scc(-c2ccccc2)n1-c1ccccc1 |  |  | Clinical isolate 331 |  | MIC |  | 80 µg/mL
CNC(=S)Nc1ccc(C(C)=O)cc1 |  |  | H37Rv |  | MIC |  | 2.5 µg/mL
CCOc1c(N=Nc2ccccc2)c(C)nn1C(=S)S |  |  | H37Rv | BACTEC | MIC bound |  | >12.5 µg/mL
CCn1cc(C(=O)O)c(=O)c2cc(F)c(N3CCN(CC(=O)c4ccc(Br)cc4)CC3)cc21 | VERO |  | H37Rv |  | MIC |  | 6.25 µg/mL
O=C(Nc1ccccc1-c1nn(CN2CCNCC2)c(=S)n(CN2CCNCC2)c1=O)C(F)(F)F |  |  | H37Rv | BACTEC | MIC bound |  | >12.5 µg/mL
Oc1cc(Cl)ccc1Oc1ccc(Cn2ccnn2)cc1Cl |  |  | H37Rv | MTT | MIC |  | 100 µg/mL
Cc1ccc(/C(CN2CCN(c3cc4c(cc3F)c(=O)c(C(=O)O)cn4C3CC3)CC2)=N\O)cc1 |  |  | H37Rv |  | MIC |  | >6.25 µg/mL
CNC(=S)Nc1ccc(N=Nc2ccccc2)cc1 |  |  | H37Rv |  | MIC |  | 10 µg/mL
Cc1cc(CC(=O)NCc2ccc(Oc3ccc(Cl)cc3O)c(Cl)c2)on1 |  |  | H37Rv | MTT | MIC |  | 100 µg/mL
O=C1c2cc(Cl)ccc2NC(O)c2cccn21 |  |  | H37Rv | BACTEC | inhibition | 12.5 µg/mL | 0%
CO[C@H]1/C=C/O[C@@]2(C)Oc3c(C)c(O)c4c(O)c(c(/C=N/N5CCN(C)CC5)c(O)c4c3C2=O)NC(=O)/C(C)=C\C=C\[C@H](C)[C@H](O)[C@@H](C)[C@@H](O)[C@@H](C)[C@H](OC(C)=O)[C@@H]1C |  |  | Isolate L |  | MIC |  | >2 µg/mL
O=C1NC(=S)N/C1=C/c1cccc(O)c1 |  |  | H37Rv | BACTEC | EC50 |  | >6.25 µg/mL
CCC1CN(c2cc3c(cc2F)c(=O)c(C(=O)O)cn3C2CC2)CCN1 |  |  | TN1625 (A90V) |  | MIC |  | 3 µg/mL
O=C1NC(=S)NC1=C1CCCCC1 |  |  | H37Rv | BACTEC | inhibition | 6.25 µg/mL | 0%
CCn1cc(C(=O)O)c(=O)c2cc(F)c(N3CCN(C/C(=N/O)c4ccc(F)cc4)CC3)cc21 |  |  | H37Rv |  | MIC |  | >6.25 µg/mL
NNC(=O)c1ccncc1 |  |  | H37Rv (ATCC 27947) |  | MIC |  | 0.06 µg/mL
OC1N=[N+]2CCN=C2c2cccnc21 |  |  | H37Rv | BACTEC | MIC bound |  | >12.5 µg/mL
CC(C)c1ccc(/C=C2/NC(=S)NC2=O)cc1 |  |  | H37Rv | BACTEC | EC50 |  | <6.25 µg/mL
COc1ccc(C2CC(c3sc(Nc4ccc(C)cc4)nc3C)=NN2)cc1 |  |  | H37Rv | resazurin | MIC bound |  | >6.25 µg/mL
O=C(CN1CCN(c2cc3c(cc2F)c(=O)c(C(=O)O)cn3C2CC2)CC1)c1ccc(Br)cc1 | VERO |  | H37Rv |  | inhibition | 6.25 µg/mL | 101%
Nc1nc(N)nc(-c2ccc([N+](=O)[O-])o2)n1 |  |  | H37Rv | BACTEC | inhibition | 12.5 µg/mL | 99%
CO[C@H]1/C=C/O[C@@]2(C)Oc3c(C)c(O)c4c(O)c(cc(O)c4c3C2=O)NC(=O)/C(C)=C\C=C\[C@H](C)[C@H](O)[C@@H](C)[C@@H](O)[C@@H](C)[C@H](OC(C)=O)[C@@H]1C |  |  | H37Rv |  | MIC |  | 0.05 µg/mL
O=C1NC(=S)N/C1=C/c1cccc(OCc2ccccc2)c1 |  |  | H37Rv | BACTEC | inhibition | 6.25 µg/mL | 94%
CNC(=S)Nc1ccc(/C(C)=N/O)cc1 |  |  | H37Rv |  | MIC |  | 0.156 µg/mL
O=C(CSc1nnc(-c2ccccn2)s1)N/N=c1/scc(-c2ccccc2Br)n1-c1ccccc1 |  |  | Clinical isolate 331 |  | MIC |  | >80 µg/mL
CC1COc2c(N3CCN(C)CC3)c(F)cc3c(=O)c(C(=O)O)cn1c23 |  |  | DP299S | broth dilution | MIC |  | 0.5 µg/mL
O=C(CSc1nnc(-c2ccccn2)s1)N/N=c1/scc(-c2ccccc2)n1-c1ccc([N+](=O)[O-])cc1 |  |  | Clinical isolate 331 |  | MIC |  | >80 µg/mL
C1CN(CC2CCC(CN3CCOCC3)O2)CCO1 |  |  | H37Rv | BACTEC | MIC bound |  | >12.5 µg/mL
O=C1NC(=S)N/C1=C/c1cccc(Cl)c1Cl |  |  | H37Rv | BACTEC | inhibition | 6.25 µg/mL | 10%
Cc1oc(N)c(S(=O)(=O)c2cc3ccccc3n(O)c2=N)c1C |  |  | H37Rv | resazurin | inhibition | 6.25 µg/mL | 0%
NNC(=O)c1ccncc1 |  |  | CSU21 |  | MIC |  | 4 µg/mL
CCCCc1cn(Cc2ccc(Oc3ccc(Cl)cc3Cl)c(O)c2)nn1 |  | INH resistant katG deletion | mc4977 | MTT | MIC |  | 0.6 µg/mL
Cc1ccc(OCCSC(=S)N(C)C)c(CSC(=S)N(C)C)c1 |  |  | H37Rv | BACTEC | MIC |  | ≥128 µg/mL
Oc1cc(CNC2CCCCC2)ccc1Oc1ccc(Cl)cc1Cl |  | INH RIF resistant | V2475 | MTT | MIC |  | 12.5 µg/mL
C=C[C@@]1(C)C=C2CC[C@@H]3[C@](C)(CCC[C@@]3(C)C(=O)O)[C@H]2CC1 |  |  | H37Ra | resazurin | MIC |  | 50 µg/mL
CCn1cc(C(=O)O)c(=O)c2cc(F)c(N3CCN(CC(=O)c4ccc(OC)cc4)CC3)cc21 |  |  | H37Rv |  | MIC |  | >6.25 µg/mL
Cc1ccc(C)c(/C=C2/NC(=S)NC2=O)c1 |  |  | H37Rv | BACTEC | EC50 |  | <6.25 µg/mL
Nc1ncnc(N)c1NC(=O)c1cccnc1 |  |  | H37Rv | BACTEC | MIC bound |  | >12.5 µg/mL
C[C@H]1COc2c(N3CCN(C)CC3)c(F)cc3c(=O)c(C(=O)O)cn1c23 |  |  | CSU27 |  | MIC |  | ≤0.125 µg/mL
Oc1cc(-c2cc(-c3ccccc3)on2)ccc1Oc1ccc(Cl)cc1Cl |  |  | H37Rv | MTT | MIC |  | >100 µg/mL
C[N+](C)(C)CC(=O)N/N=C/c1cccc2ccccc12.[Cl-] |  |  | H37Rv | BACTEC | MIC bound |  | >12.5 µg/mL
O=C(NCc1ccc(Oc2ccc(Cl)cc2O)c(Cl)c1)c1cc(-c2ccccc2)on1 |  |  | H37Rv | MTT | MIC |  | >100 µg/mL
CCOC(=O)CC1(C)C(=O)OC(c2ccccc2)N1C(=O)c1ccccc1 |  |  | H37Rv | BACTEC | inhibition | 12.5 µg/mL | 1%
CC1CN(c2c(F)cc3c(=O)c(C(=O)O)cn(C4CC4)c3c2F)CC(C)N1 |  |  | CSU28 |  | MIC |  | ≤0.125 µg/mL
Cc1cccc(/C=C2/NC(=S)NC2=O)c1 |  |  | H37Rv | BACTEC | inhibition | 6.25 µg/mL | 88%
CO[C@H]1/C=C/O[C@@]2(C)Oc3c(C)c(O)c4c(O)c(c(/C=N/N5CCN(Cc6ccccc6)CC5)c(O)c4c3C2=O)NC(=O)/C(C)=C\C=C\[C@H](C)[C@H](O)[C@@H](C)[C@@H](O)[C@@H](C)[C@H](OC(C)=O)[C@@H]1C |  |  | H37Rv | BACTEC | MIC |  | <0.1 µg/mL
CO[C@H]1/C=C/O[C@@]2(C)Oc3c(C)c(O)c4c(O)c(c(/C=N/c5nccs5)c(O)c4c3C2=O)NC(=O)/C(C)=C\C=C\[C@H](C)[C@H](O)[C@@H](C)[C@@H](O)[C@@H](C)[C@H](OC(C)=O)[C@@H]1C |  |  | H37Rv |  | MIC |  | 5 µg/mL
CO[C@H]1/C=C/O[C@@]2(C)Oc3c(C)c(O)c4c(O)c(c5c(c4c3C2=O)NC2(CCN(CC(C)C)CC2)N=5)=NC(=O)/C(C)=C\C=C\[C@H](C)[C@H](O)[C@@H](C)[C@@H](O)[C@@H](C)[C@H](OC(C)=O)[C@@H]1C |  |  | Strain 24 |  | MIC |  | ≤0.125 µg/mL
O=C1NC(=S)N/C1=C/c1cccc(Cl)c1 |  |  | H37Rv | BACTEC | inhibition | 6.25 µg/mL | 71%
N[C@@H](CCC(=O)N[C@@H](CS)C(=O)NCC(=O)O)C(=O)O |  |  | H37Rv | BACTEC | MIC |  | ≥12.5 µg/mL
CO[C@H]1/C=C/O[C@@]2(C)Oc3c(C)c(O)c4c(O)c(c(/C=N/N5CCN(C)CC5)c(O)c4c3C2=O)NC(=O)/C(C)=C\C=C\[C@H](C)[C@H](O)[C@@H](C)[C@@H](O)[C@@H](C)[C@H](OC(C)=O)[C@@H]1C |  |  | H37Rv |  | MIC |  | >0.1 µg/mL
O=C1C=CC2=Nc3ccccc3CCC2=C1 |  |  | H37Rv | BACTEC | inhibition | 12.5 µg/mL | 97%
CC(C)=CCC1C(=O)C(CC=C(C)C)(CC=C(C)C)C(O)C(C(=O)C(C)C)C1O |  |  | Isolate K |  | MIC |  | 30.5 µg/mL
Cc1cc(=O)c2c([nH]1)c1c(c3[nH]c(C)cc(=O)c32)Oc2ccccc2O1 |  |  | KM-R |  | MIC |  | 1.6 µg/mL
O=C(CSc1nnc(-c2ccccn2)s1)N/N=c1/scc(-c2cccc([N+](=O)[O-])c2)n1-c1ccccc1 |  |  | Clinical isolate 331 |  | MIC |  | >80 µg/mL
CN/N=C/c1c2c(O)c3c(O)c(C)c4c(c3c1O)C(=O)[C@@](C)(O/C=C/[C@H](OC)[C@@H](C)[C@@H](OC(C)=O)[C@H](C)[C@H](O)[C@H](C)[C@@H](O)[C@@H](C)/C=C/C=C(/C)C(=O)N2)O4 |  |  | H37Rv |  | MIC |  | 5 µg/mL